Laboratory results taken from patent US20040175731.

How the values were obtained:
Assay in all cases: pull-down
[1] = target: TcaR (Staphylococcus aureus) (UniProt Q9F4G3); details: DNA affinity chromatography with MN8 lysate; MS identification; Example 2 states a 58 bp oligo; protein in an extract; protein details: MN8 lysate, identified by mass spectrometry; label: terminal biotin
[2] = target: SarA (Staphylococcus aureus) (UniProt Q2G2U9); details: DNA affinity chromatography with MN8 lysate; MS identification; protein in an extract; protein details: MN8 lysate, identified by mass spectrometry; label: terminal biotin
[3] = tested on: Topoisomerase IV (Staphylococcus aureus); details: DNA affinity chromatography; described as non-specific; Example 2 states a 58 bp oligo; protein in an extract; protein details: MN8 lysate, identified by mass spectrometry; label: terminal biotin
[4] = target: DNA-binding protein II (HU) (Staphylococcus aureus) (UniProt Q99U17); details: DNA affinity chromatography; described as non-specific DNA binding protein; protein in an extract; protein details: MN8 lysate, identified by mass spectrometry; label: terminal biotin

Measured: binding result

CTATGTTACAGGAAAATTAAGTTGCAATTACAAATATTTCCGTTTAATTATAA (double strand) [53-bp affinity chromatography probe]
binds: [1] | [2] | [3] | [4]

The exact form of at least one protein or probe is not confirmed. At least one result comes from cells or an extract, where the contact may be indirect.
